In patent publication US7608726B2, “Substituted indolepyridinium as anti-infective compounds” (Tibotec Pharmaceuticals Ltd., priority 2002, dated 2009):

System: HIV viruses
Test: Cross resistance study with more than 8000 viruses

## Cn1c2ccccc2c2c1cc(C#N)c(=O)n2-c1ccc([N+](=O)[O-])cc1 [Compound 2, 5-methyl-1-(4-nitro-phenyl)-2-oxo-2,5-dihydro-1H-pyrido[3,2-b]indole-3-carbonitrile]
Versus 3TC
  calculated correlation coefficient with 3TC: about 0.63
Versus abacavir, AZT, D4T, DDC, DDI (all cases except 3TC)
  calculated correlation coefficient with known NRTIs: lower than 0.28
Versus capravirine, delavirdine, nevirapine, efavirenz
  calculated correlation coefficient with known NNRTIs: ≤ 0.13
